Test results from article PMC8865542, “The Large Nonstructural Protein (NS1) of Human Bocavirus 1 Directly Interacts with Ku70, Which Plays an Important Role in Virus Replication in Human Airway Epithelia” (Journal of Virology, 2021).

B1: Ku70 with Strep-tag II (natural protein, UniProt P12956 1-609, looked up)
chain: MSGWESYYKTEGDEEAEEEQEENLEASGDYKYSGRDSLIFLVDASKAMFESQSEDELTPFDMSIQCIQSVYISKIISSDRDLLAVVFYGTEKDKNSVNFKNIYVLQELDNPGAKRILELDQFKGQQGQKRFQDMMGHGSDYSLSEVLWVCANLFSDVQFKMSHKRIMLFTNEDNPHGNDSAKASRARTKAGDLRDTGIFLDLMHLKKPGGFDISLFYRDIISIAEDEDLRVHFEESSKLEDLLRKVRAKETRKRALSRLKLKLNKDIVISVGIYNLVQKALKPPPIKLYRETNEPVKTKTRTFNTSTGGLLLPSDTKRSQIYGSRQIILEKEETEELKRFDDPGLMLMGFKPLVLLKKHHYLRPSLFVYPEESLVIGSSTLFSALLIKCLEKEVAALCRYTPRRNIPPYFVALVPQEEELDDQKIQVTPPGFQLVFLPFADDKRKMPFTEKIMATPEQVGKMKAIVEKLRFTYRSDSFENPVLQQHFRNLEALALDLMEPEQAVDLTLPKVEAMNKRLGSLVDEFKELVYPPDYNPEGKVTKRKHDNEGSGSKRPKVEYSEEELKTHISKGTLGKFTVPMLKEACRAYGLKSGLKKQELLEALTKHFQD
notes: also called Ku70^Strep; full-length Ku70; source: E. coli BL21(DE3), purified (Strep-Tactin Superflow); not shown: Strep-tag II, C-terminal, kept
B2: Ku70 domain A (α/β domain) with Strep-tag II (domain or fragment, UniProt P12956 1-250, looked up)
chain: MSGWESYYKTEGDEEAEEEQEENLEASGDYKYSGRDSLIFLVDASKAMFESQSEDELTPFDMSIQCIQSVYISKIISSDRDLLAVVFYGTEKDKNSVNFKNIYVLQELDNPGAKRILELDQFKGQQGQKRFQDMMGHGSDYSLSEVLWVCANLFSDVQFKMSHKRIMLFTNEDNPHGNDSAKASRARTKAGDLRDTGIFLDLMHLKKPGGFDISLFYRDIISIAEDEDLRVHFEESSKLEDLLRKVRAKE
notes: also called Strep-tagged domain A; source: E. coli BL21(DE3), purified (Strep-Tactin agarose); not shown: Strep-tag II, C-terminal, kept

Molecular target: T1, HBoV1 NS[…] with Flag and His tags (human bocavirus 1 (HBoV1))
T1 construct: source: E. coli BL21/DE3 pLysS, purified (His tag, Sephadex G75)
Test: BLI
Details: both partners purified

Row | Binder | Kd [nM]
1 | B1 | 160
2 | B2 | 670
